Human monoclonal antibodies against the spike receptor-binding domain (heavy:light variable regions). IC50 against pseudoviruses bearing the spike of naturally observed variants; lower = stronger; >10 µg/ml means not reached at the top dose. No active / inactive call. The stated detection limit is 0.0005 µg/ml; values near or below 0.001 µg/ml lie at the floor of the assay.
B1: BD56-1183 (protein)
chain 1: EVQLLESGGGLVQPGGSLRLSCAASGFTFSSSAMSWVRQAPGKGLEWVSAIKGSGGSTYYADSVKGRFTISRDNSKNTLYLQMSSLRAEDTAVYYCARLDILTGYFGPWGQGTLVTVSS
chain 2: NFMLTQPHSVSESPGKTVTISCTGSSGSIAINYVQWYQQRPGSAPTTVIYEDNQRPSGVPDRFSGSIDSSSNSASLTISGLKTEDEADYYCQSYDSSNLWVFGGGTKLTVL
B2: BD56-1184 (protein)
chain 1: EVQLVESGGGLVKPGGSLRLSCAASGFTFSGYSMNWVRQAPGKGLEWVSSISSSSSYIYYADSVKGRFTVSRDNAKNSLYLQMNSLRAEDTAVYYCVSMPDNYAYVALDYWGQGTLVTVSS
chain 2: QPLLTQPPSASASLGASVTLTCTLSSGYSNYEVDWYQQRPGKGPRFVMRVGTGGIVGSKGDGIPDRFSVLGSGLNRYLTIKNIQEEDESDYHCGADHGSGDNFSWVFGGGTKLTVL
B3: BD56-1191 (protein)
chain 1: EVQLVESGGGLVQPGRSLRLSCAASGFTFDDYAMHWVRQAPGKGLEWVSGISWNGDNIDYAGSVKGRFTISRDNAKNSLYLQMNSLRAEDTALYYCAKTNGIREDYIGHDVFDMWGQGTMVTVSS
chain 2: SYELTQPPSVSVSPGQTARITCSGDALPKKYAYWYQQKSGQAPVLVIYEDSKRPSGIPERFSGSSSGTMATLTISGAQVEDEADYYCYSTDSSGYPLFGGGTKLTVL
B4: BD56-1193 (protein)
chain 1: EVQLVESGGGLVQPGGSLRLSCAASGFIFSNYWMSWVRQAPGKGLEWVANINQDGSEKYYVDSVKGRFTISRDNAKKSLYLQMNSLRAEDTAVYYCARGADNYDSSHYCGYWGQGTLVTVSS
chain 2: SYELTQPPSVSVSPGQTARITCSGDALPNQYAYWYQQKPGQAPVLVIYKDSERPSGIPERFSGSSSGTTVTLTISGVQAEDEADYYCQSADSSGTYPVVFGGGTKLTVL
B5: BD56-1201 (protein)
chain 1: QVQLVESGGGVVQPGRSLRLSCAASGFTFSSYGMHWVRQAPGKGLEWVAVISYDGDGSNKYYADSVKGRFTISRDNSRNTLYLQMNSLRAEDTAVYYCVKGGEYQLLDPDWYYFGYWGQGTLVTVSS
chain 2: AIRITQSPSSLSASTGDRVTITCRASQGISSYLAWYQQKPGKAPKLLIYAASTLQSGVPSRFSGSGSGTDFTLTINHLQSEDFATYYCQQYYSYPLTFGGGTKVEIK
B6: BD56-1208 (protein)
chain 1: QLQLQESGPGLVKPSETLSLTCTVSGASISARGYSWGWIRQPPGKGLEWIGSIYYRGSTFYNPSLKSRVTISVDTSKNQFSLKVSSVTAADTAVFYCATFHILTHWADSWGQGTLVTVSS
chain 2: NFMLTQPHSVSESPGKTVTISCTGSSGSIASNYVQWYQQRPGSAPTTVIYEDNQRPSGVPDRFSGSIDSSSKSASLTISGLKTEDEAYYYCQSFDGSFVVFGGGTKLTVL
B7: BD56-1210 (protein)
chain 1: EVQLVESGGGLVQPGRSLRLSCAASGFTFDDHAMHWVRQAPGKGLEWVSGITWNTDNIGYADSVKGRFTISRDNAKNSLYLQMNSLRVEDTALYYCVKDIVDSGWYYFDYWGQGTLVIVSS
chain 2: QSALTQPASVSGSPGQSLTISCTGTSSDIGSYILVSWYQQHPGKAPKLMIYEASKRPSGVSNRFSGSKSGNTASLTISGLQPEDEADYYCCSYAGSTTLVFGGGTKLTVL
B8: BD56-1349 (protein)
chain 1: EVQLVESGGGLVQPGGSLRLSCAASGFTFSSYWMNWVRQAPGRGLEWVANIKQDGSEKYYVDSVKGRFTISRDNAKNSLYLQMNSLRAEDTAVYYCVTHGDEVYWGQGTLVTVSS
chain 2: DIQMTQSPSSLSASVGDRVTITCQASQDISTYLNWFQQKPGKAPKLLIYDASNLETGVPSRFSGSGSGTDFTFTISSLQPEDIATYYCQQYDNLGPTFGGGTKVEIK
B9: BD56-1353 (protein)
chain 1: QVQLVESGGGVVQPGRSLRLSCAASGFPFSSYGMHWVRQAPGKGLEWVAVIWFDGSNKYYADSVKGRFTISRDNFKNTLYLQMNSLRVEDTAVYYCARDPYDILTGYGFDYWGQGTLVTVSS
chain 2: QSALTQPASVSGSPGQSITISCTGTSSDVGGYKYVCWYQQHPGKAPKLMIYDVSNRPSGVSHRFSGSKSGNTASLTISGLQAEDEADYYCSSFTSSSTLIFGGGTKLTVL
B10: BD56-1356 (protein)
chain 1: DVQLVQSGAEVKKPGESLKISCKGSGYSFASYWIAWVRQMPGKGLEWMGIIYPGDSDTRYSPSFQGQVTISADKSISTAYLQWSSLKASDTAMYYCATGLTTLGGFDPWGQGTLVTVSS
chain 2: SYVLTQPPSVSVAPGQTARITCGGNNIGSKSVHWYQQKPGQAPVLVVYDDRGRPSGMPERFSGSNSGNTATLTISSVEAGDEADYYCQMWDSSSDFWVFGGGTKLTVL

Target: SARS-CoV-2 Omicron BA.1 spike pseudovirus
Experiment: pseudovirus neutralization IC50; higher = weaker neutralization
Procedure: (§1)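 Single-round VSV luciferase pseudovirus mixed with antibody dilutions for 1 h and put on Huh-7 cells for about a day; IC50 from the dose curve.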

Binder | pseudovirus neutralization IC50 [µg/mL]
B1 | 1.83
B2 | 0.0021
B3 | 0.288
B4 | 0.00554
B5 | 0.043
B6 | 1.03
B7 | 0.191
B8 | > 10
B9 | 0.0359
B10 | 0.00436

Target: SARS-CoV-2 Omicron BA.2 spike pseudovirus
Experiment: as above
Procedure: as §1

Binder | pseudovirus neutralization IC50 [µg/mL]
B1 | 0.25
B2 | 0.00547
B3 | 0.361
B4 | 0.00274
B5 | 0.067
B6 | 0.442
B7 | 0.0294
B8 | 0.00994
B9 | 0.0211
B10 | 0.000261

Target: SARS-CoV-2 Omicron BA.2.75 spike pseudovirus
Experiment: as above
Procedure: as §1

Binder | pseudovirus neutralization IC50 [µg/mL]
B1 | 0.91
B2 | 0.00373
B3 | > 10
B4 | 0.0287
B5 | > 10
B6 | > 10
B7 | > 10
B8 | 0.31
B9 | > 10
B10 | 0.0165

Target: SARS-CoV-2 Omicron BA.2.75.2 spike pseudovirus
Experiment: as above
Procedure: as §1

Binder | pseudovirus neutralization IC50 [µg/mL]
B1 | 0.886
B2 | > 10
B3 | > 10
B4 | 0.062
B5 | > 10
B6 | > 10
B7 | 3.07
B8 | 0.833
B9 | > 10
B10 | 0.44

Target: SARS-CoV-2 Omicron BA.5 spike pseudovirus
Experiment: as above
Procedure: as §1

Binder | pseudovirus neutralization IC50 [µg/mL]
B1 | 0.228
B2 | 0.0726
B3 | > 10
B4 | 0.00136
B5 | 2.03
B6 | 0.363
B7 | > 10
B8 | 0.0701
B9 | > 10
B10 | 0.0337

Target: SARS-CoV-2 Omicron BM.1.1.1 spike pseudovirus
Experiment: as above
Procedure: as §1

Binder | pseudovirus neutralization IC50 [µg/mL]
B1 | 0.742
B2 | > 10
B3 | > 10
B4 | 0.0216
B5 | > 10
B6 | > 10
B7 | > 10
B8 | > 10
B9 | > 10
B10 | 1.38

Target: SARS-CoV-2 Omicron BQ.1.1 spike pseudovirus
Experiment: as above
Procedure: as §1

Binder | pseudovirus neutralization IC50 [µg/mL]
B1 | 0.943
B2 | 0.276
B3 | > 10
B4 | 0.00366
B5 | > 10
B6 | > 10
B7 | > 10
B8 | 0.851
B9 | > 10
B10 | 1.38

Target: SARS-CoV-2 Omicron BR.2 spike pseudovirus
Experiment: as above
Procedure: as §1

Binder | pseudovirus neutralization IC50 [µg/mL]
B1 | 1.16
B2 | 0.00697
B3 | > 10
B4 | 0.0313
B5 | > 10
B6 | > 10
B7 | > 10
B8 | 0.382
B9 | > 10
B10 | 0.755

Target: SARS-CoV-2 Omicron CA.1 spike pseudovirus
Experiment: as above
Procedure: as §1

Binder | pseudovirus neutralization IC50 [µg/mL]
B1 | 0.601
B2 | > 10
B3 | > 10
B4 | 0.0397
B5 | > 10
B6 | > 10
B7 | > 10
B8 | 0.701
B9 | > 10
B10 | 0.471

Target: SARS-CoV-2 Omicron XBB spike pseudovirus
Experiment: as above
Procedure: as §1

Binder | pseudovirus neutralization IC50 [µg/mL]
B1 | 1.17
B2 | > 10
B3 | > 10
B4 | > 10
B5 | > 10
B6 | > 10
B7 | > 10
B8 | > 10
B9 | > 10
B10 | 2.7

Target: SARS-CoV-2 early D614G spike pseudovirus
Experiment: as above
Procedure: as §1

Binder | pseudovirus neutralization IC50 [µg/mL]
B1 | > 10
B2 | > 10
B3 | > 10
B4 | > 10
B5 | > 10
B6 | > 10
B7 | > 10
B8 | > 10
B9 | > 10
B10 | > 10

From the supplement of paper PMC9931576
